Data as given in PubChem BioAssay AID624099 (ICCB-Longwood, 2012).

- Test: 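Host factors E2 relies on to silence an HPV18 LCR reporter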 (primary screen)
- System: human C33A cervical carcinoma cells (HPV-negative) stably expressing BPV1 E2 and an HPV18 LCR luciferase reporter
- Knock-down reagent: siRNA pool against human genes, 40 nM
- Duration: 72 h
- Measurement: 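Per-well luciferase luminescence, z-scored on each plate against the plate mean and SD with control wells left out, then averaged across three replicate plates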
- Reading the numbers: mean z-score and z-score: higher = stronger reporter signal, weaker E2 silencing
- Hit rule: 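Hit if mean z-score reaches 2 and two or more of three replicate z-scores also reach 2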
Shown is a random part of about 21,000 deposited reagents. Of all reagents, 497 (2.4%) are marked active. 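Higher z means weaker E2 silencing; only reporter increases were scored, and knock-downs that hurt cell survival may mask genuine repressor factors.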 The numbers tell different reagents against one gene apart. No sequences are given here.

The first 6 entries, to show the layout:
| Target gene | reagent no. | mean z-score | z-score, replicate A | z-score, replicate B | z-score, replicate C | Call |
| --- | --- | --- | --- | --- | --- | --- |
| MINDY2 | 1 | -0.47 | -0.73 | -0.65 | -0.03 | inactive |
| ZNF12 | 1 | -0.11 | -0.5 | -0.1 | 0.28 | inactive |
| ZNF12 | 2 | 0.6 | 0.59 | 0.72 | 0.48 | inactive |
| OXER1 | 1 | -0.47 | -0.6 | -0.53 | -0.27 | inactive |
| MIA2 | 1 | -0.56 | -0.65 | -0.63 | -0.39 | inactive |
| MIA2 | 2 | -0.22 | 0.25 | -0.2 | -0.71 | inactive |

The list itself, from the start:
| Target gene | reagent no. | mean z-score | z-score, replicate A | z-score, replicate B | z-score, replicate C | Call |
| --- | --- | --- | --- | --- | --- | --- |
| MINDY2 | 1 | -0.47 | -0.73 | -0.65 | -0.03 | inactive |
| ZNF12 | 1 | -0.11 | -0.5 | -0.1 | 0.28 | inactive |
| ZNF12 | 2 | 0.6 | 0.59 | 0.72 | 0.48 | inactive |
| OXER1 | 1 | -0.47 | -0.6 | -0.53 | -0.27 | inactive |
| MIA2 | 1 | -0.56 | -0.65 | -0.63 | -0.39 | inactive |
| MIA2 | 2 | -0.22 | 0.25 | -0.2 | -0.71 | inactive |
| NUP107 | 1 | 0.29 | -0.08 | 0.8 | 0.14 | inactive |
| CRY2 | 1 | -0.81 | -1.09 | -0.79 | -0.55 | inactive |
| TMEM183AP3 | 1 | 0.39 | -0.05 | 0.11 | 1.11 | inactive |
| SLC25A51 | 1 | 0.08 | 0.25 | 0.3 | -0.3 | inactive |
| LOC402295 (retired record) | 1 | 0.22 | 0.26 | 0.2 | 0.21 | inactive |
| HLA-DRB5 | 1 | -1.19 | -1.35 | -1.05 | -1.17 | inactive |
| LOC401434 (retired record) | 1 | 0.06 | -0.08 | 0.09 | 0.17 | inactive |
| PTCRA | 1 | 1.24 | 1.26 | 1.1 | 1.35 | inactive |
| ACSL1 | 1 | 1.03 | 1.14 | 1.03 | 0.92 | inactive |
| LINC03043 | 1 | -0.57 | -0.55 | -0.54 | -0.63 | inactive |
| LINC03043 | 2 | 0.02 | 0.01 | -0.36 | 0.41 | inactive |
| HRH4 | 1 | -0.68 | -0.83 | -0.5 | -0.71 | inactive |
| LIN7B | 1 | 1.05 | 1.23 | 1.21 | 0.7 | inactive |
| ANKRD7 | 1 | -0.01 | 0.37 | -0.04 | -0.37 | inactive |
| CYP3A7 | 1 | -0.59 | -0.6 | -0.82 | -0.34 | inactive |
| CFAP43 | 1 | -0.54 | -0.49 | -0.93 | -0.19 | inactive |
| CCDC13 | 1 | -0.15 | -0.06 | -0.5 | 0.1 | inactive |
| TMEM54 | 1 | 0.99 | 1.01 | 0.84 | 1.11 | inactive |
| YJU2 | 1 | 0.55 | 0.44 | 0.36 | 0.84 | inactive |
| LOC388173 (retired record) | 1 | 0.14 | 0.14 | 0.11 | 0.17 | inactive |
| ISM2 | 1 | -0.38 | -0.5 | -0.27 | -0.38 | inactive |
| PDZD8 | 1 | 0.68 | 0.36 | 0.76 | 0.92 | inactive |
| RAPGEF5 | 1 | 0.16 | 0 | 0.25 | 0.23 | inactive |
| SNX25 | 1 | 0.43 | 0.68 | 0.34 | 0.27 | inactive |
| SERTAD4BP | 1 | -0.4 | -0.26 | -0.54 | -0.4 | inactive |
| LBX2-AS1 | 1 | -0.07 | -0.2 | -0.18 | 0.17 | inactive |
| ABRAXAS2 | 1 | 0.54 | 0.22 | 0.89 | 0.52 | inactive |
| ATP2B1 | 1 | -0.2 | 0.1 | -0.44 | -0.26 | inactive |
| NELFA | 1 | -0.88 | -0.86 | -0.77 | -1 | inactive |
| RCE1 | 1 | -0.75 | -0.18 | -0.71 | -1.36 | inactive |
| GOLGA8EP | 1 | -0.16 | -0.13 | -0.18 | -0.17 | inactive |
| ZNF467 | 1 | 0.04 | -0.05 | 0.13 | 0.03 | inactive |
| KLHL9 | 1 | -1.3 | -1.37 | -1.38 | -1.14 | inactive |
| BEND5 | 1 | 0.73 | 1.16 | 0.56 | 0.46 | inactive |
| MAP3K1 | 1 | 0.47 | 0.23 | 0.5 | 0.67 | inactive |
| RIOK1 | 1 | 1.22 | 1.03 | 1.03 | 1.59 | inactive |
| C1GALT1 | 1 | 0.15 | -0.15 | -0.14 | 0.75 | inactive |
| MYCBP | 1 | 0.59 | 0.55 | 0.61 | 0.61 | inactive |
| NBPF14 | 1 | -1.14 | -0.99 | -1.23 | -1.21 | inactive |
| USF2 | 1 | 1.24 | 1.42 | 0.98 | 1.32 | inactive |
| PTGIR | 1 | 0.63 | 0.49 | 0.53 | 0.88 | inactive |
| CLCN1 | 1 | -0.35 | -0.49 | -0.23 | -0.34 | inactive |
| FARS2 | 1 | 0.48 | 0.65 | 0.64 | 0.14 | inactive |
| FOLR2 | 1 | -0.8 | -0.65 | -0.88 | -0.87 | inactive |
| ELOVL3 | 1 | 0.29 | -0.13 | 0.53 | 0.45 | inactive |
| AKNA | 1 | -0.21 | -0.18 | -0.12 | -0.32 | inactive |
| CES3 | 1 | -0.58 | -0.4 | -0.53 | -0.82 | inactive |
| PSMC4 | 1 | -1.33 | -1.31 | -1.22 | -1.47 | inactive |
| COL9A2 | 1 | -0.05 | 0.01 | -0.04 | -0.13 | inactive |
| MAGT1 | 1 | -0.41 | -0.45 | -0.25 | -0.51 | inactive |
| TCF25 | 1 | -0.43 | -0.22 | -0.5 | -0.58 | inactive |
| ARHGAP23 | 1 | 0.56 | 0.58 | 0.82 | 0.26 | inactive |
| LOC390565 (retired record) | 1 | -0.48 | -0.62 | -0.43 | -0.4 | inactive |
| CKAP4 | 1 | -0.76 | -0.64 | -0.77 | -0.86 | inactive |
| PTPN11 | 1 | -0.06 | -0.25 | -0.06 | 0.13 | inactive |
| SPRR2A | 1 | 0.36 | 0.55 | 0.18 | 0.34 | inactive |
| ZNF570 | 1 | 1.01 | 1.14 | 1.15 | 0.73 | inactive |
| MUS81 | 1 | 1.33 | 1.67 | 1.17 | 1.16 | inactive |
| BCLAF1 | 1 | -0.27 | -0.26 | -0.33 | -0.23 | inactive |
| YTHDF3 | 1 | -0.52 | -0.44 | -0.41 | -0.7 | inactive |
| SPIRE2 | 1 | 1.01 | 1.19 | 1.3 | 0.54 | inactive |
| LOC392997 (retired record) | 1 | -0.3 | 0.16 | -0.32 | -0.74 | inactive |
| SDK2 | 1 | -0.77 | -0.87 | -0.8 | -0.63 | inactive |
| SOAT1 | 1 | 0.35 | 0.17 | 0.47 | 0.41 | inactive |
| CPN2 | 1 | -1.6 | -1.4 | -1.73 | -1.65 | inactive |
| PXYLP1 | 1 | -0.99 | -0.78 | -0.91 | -1.29 | inactive |
| HEG1 | 1 | -2.26 | -2.27 | -2.14 | -2.36 | inactive |
